{"source": "patent EP0912195B1", "about": "“VACCINE COMPRISING ANTIGENS BOUND TO CARRIERS THROUGH LABILE BONDS” (PEPSCAN SYSTEMS B.V., priority 1996, dated 1997)", "key": {"guinea pigs [1]": {"tested_on": "guinea pigs", "assay": "CPV constructs, third experiment: anti peptide antibody titers in ELISA", "format": "in vivo", "settings": "serum anti-peptide antibody titer, -log(dilution factor); 100 µg; CFA; 8 weeks"}, "guinea pigs [2]": {"tested_on": "guinea pigs", "assay": "CPV constructs, first experiment: anti peptide antibody titers in ELISA", "format": "in vivo", "settings": "compared with the peptide conjugated to KLH"}}, "note": "“And” between values parts separate entries of the source, which are not always exact repeats. Identical values can stand only once.", "data": [{"smiles": "CCCCCCCCCCCCCCCC(=O)N[C@@H](CS)C(=O)N[C@@H](CO)C(=O)N[C@@H](CC(=O)O)C(=O)NCC(=O)N[C@@H](C)C(=O)N[C@H](C(=O)N[C@@H](CCC(N)=O)C(=O)N1CCC[C@H]1C(=O)N[C@@H](CC(=O)O)C(=O)NCC(=O)NCC(=O)N[C@@H](CCC(N)=O)C(=O)N1CCC[C@H]1C(=O)N[C@@H](C)C(=O)N[C@H](C(=O)N[C@@H](CCCNC(=N)N)C(=O)N[C@@H](CC(N)=O)C(=O)N[C@@H](CCC(=O)O)C(=O)N[C@@H](CCCNC(=N)N)C(=O)N[C@@H](C)C(=O)N[C@H](C(=O)NCC(N)=O)[C@@H](C)O)C(C)C)C(C)C", "values": [{"measurement": "titer 8 wpv", "setting": "guinea pigs [1]", "result": "2.9 and 3.4 and 2.3"}, {"measurement": "antibody response / immunogenic effect in words", "setting": "guinea pigs [2]", "result": "lower immunogenic effect"}]}]}
